Data as given in PubChem BioAssay AID504761 (Drosophila RNAi Screening Center, 2011)
The deposit covers about 22,000 reagents; shown is a random part of those with a known target gene and a result. Of all reagents, 116 (0.52%) got an active call. 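Calls depend on retest data that are not deposited; infection was ranked per plate without normalising between plates; the unit of the infection score is not given.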 Unmarked entries are inactive. The numbers tell different reagents against one gene apart. Names joined by + are all predicted targets of the reagent. Further read-outs or replicates are left out here. Not stated in the record: the amount of reagent, the time to read-out.

Purpose: 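Insect host genes that dengue virus relies on to spread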 (primary screen)
System: D.Mel-2 cells from Drosophila
Reagents: long dsRNA against Drosophila genes
Treatment: infection with dengue virus type 2; dose and infection time not stated
Read-out: 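Cells stained for dengue envelope protein and imaged; percent of infected cells per well on duplicate plates, ranked by infection, with stained nuclei counted for cell number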
Reading the numbers: infection score: higher = more virus-infected cells
Call rule: 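Low infection ranks in the two replicates (chance level up to 0.065) followed by a retest with a 1.5-fold or larger significant decrease, p below 0.05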
Calls: active = confirmed: knock-down lowers infection; inactive = not picked or not confirmed

infection score, replicate 1, by target gene and reagent
CG12880: #1 7.53
CG33969 + fbl: #1 11.8
fipi (factor of interpulse interval): #1 6.51; #2 5.59
CG32633: #1 3.94
CG14683: #1 14
Hsp67Bc (Heat shock gene 67Bc): #1 2.71; #2 27.9
Cpn (Calphotin): #1 10.9; #2 1.88
CG9590: #1 9.65
qjt (quijote): #1 1.26; #2 8.16
LysB (Lysozyme B): #1 2.13
ND-51 (NADH dehydrogenase (ubiquinone) 51 kDa subunit): #1 4.23

Entries listed so far whose target name begins with F or f (2):
infection score, replicate 1, by target gene and reagent
fipi (factor of interpulse interval): #1 6.51; #2 5.59

Further records follow.
infection score, replicate 1, by target gene and reagent
CG14625: #1 1.82; #2 3.04
Gip (GIP-like): #1 2.36
SpdS (Spermidine Synthase): #1 1.23
CG12546 + CG14452: #1 3.59; #2 14.8
Tmtc2 (Transmembrane O-mannosyltransferase targeting cadherins 2): #1 2.47
CG34168: #1 19.3
